Measurements reported in article PMC4628118 (Frontiers in Microbiology, 2015).

Molecular target: WT HIV-1 PR (NL4-3) (Human immunodeficiency virus type 1 group M subtype B, UniProt P12497)
Experiment: biochemical
Method: In vitro transcription and cell-free protein synthesis were performed using WEPRO7240 wheat germ extract (CellFree Sciences, Yokohama, Japan). Transcription was performed using SP6 RNA polymerase, as described previously ([Matsunaga et al., 2014]). The translation reaction was performed in bilayer mode with slight modifications. Briefly, translation mixture (forming the bottom layer) consisted of 10 μl of each mRNA (usually 30–35 μg), 10 μl of WEPRO7240 (CellFree Sciences, Yokohama, Japan), and 0.8 μl of 1 μg/μl creatine kinase (Roche Diagnostics K. K., Tokyo, Japan) in 20.8 μl of SUB-AMIX® (CellFree Sciences, Yokohama, Japan). […] In actual drug susceptibility testing, quantitations of synthesized HIV-1 PR proteins were performed by densitometric scanning of Coomassie Brilliant Blue (CBB)-stained bands as compared with purified HIV-1 PR or bovine serum albumin (BSA) ([Madin et al., 2000]).
CFDSA was performed using cell-free–synthesized PR, substrate peptide, and the AlphaScreen® system (PerkinElmer, Boston, MA, USA). […] Luminescence signals were analyzed with the AlphaScreen detection program using the EnSpire software (PerkinElmer), and light intensities in the presence of the serially diluted inhibitors were used to calculate their IC50 values. PI-resistance levels were determined by comparing the IC50 values of drug-resistant PR with those of NL4-3 PR. […]

SMILES: Cc1cccc(C)c1OCC(=O)N[C@@H](Cc1ccccc1)[C@@H](O)C[C@H](Cc1ccccc1)NC(=O)[C@H](C(C)C)N1CCCNC1=O [LPV, lopinavir]
- IC50: 1.1 nM
